# Measurements as given in ChEMBL document CHEMBL1137564, “Substituted 2-pyrrolinone inhibitors of HIV-1 integrase” (Bioorg Med Chem Lett, 2007).
# Target: Human immunodeficiency virus type 1 integrase (Human immunodeficiency virus 1) (UniProt Q7ZJM1)
# Assay: Selectivity for HIV1 integrase strand transfer activity over 3'-end processing activity
compound,measurement,value
O=C(C1=C(O)C(=O)N(c2nc3ccccc3s2)C1c1ccc2c(c1)OCO2)c1ccccc1 (stereo unspecified),Ratio IC50,3
